{
  "source": "patent US20030224403A1",
  "about": "(priority 2002, published 2003)",
  "test_system": "RAW 264.7 cells",
  "type": "cell-based, mouse",
  "data": [
    {"substance": "IL-2: murine interleukin-2", "values": [
      {"measurement": "effect of murine cytokine on cell lysis by LeTx", "result": "without effect"}
    ]}
  ]
}
